Pooled drug test results. Numbers come from NIAID ChemDB, via PubChem.

Common to all: growth or infection tests; organism: Streptococcus pneumoniae; endpoint: MIC

Conditions beyond the fields shown may differ between rows.

CN1CCN(c2cc3c(cc2F)c(=O)c(C(=O)O)cn3C2CC2)CC1 ; strain or isolate: R6 ; value: 1 µg/mL
CC[C@H]1OC(=O)[C@H](C)C(=O)[C@H](C)[C@@H](O[C@@H]2O[C@H](C)C[C@H](N(C)C)[C@H]2O)[C@@]2(C)C[C@@H](C)C(=NC(C)=O)[C@H](C)[C@@H](OC/C(=N\Oc3ccc(-c4nnc(N)s4)cc3)CO2)[C@]1(C)O ; strain or isolate: 7701 (erythromycin-resistant-MEF) ; value: <0.06 µg/mL
O=C(CC(=O)Nc1cccc(C(F)(F)F)c1)Nc1cccc(C(F)(F)F)c1 ; strain or isolate: STP51 (penicillin-resistant) ; value: >300 µM
CC[C@H]1OC(=O)[C@H](C)C(=O)[C@H](C)[C@@H](O[C@@H]2O[C@H](C)C[C@H](N(C)C)[C@H]2O)[C@@]2(C)C[C@@H](C)C(=NC(C)=O)[C@H](C)C(OC/C(=C\C=C\c3cccnc3)CO2)[C@]1(C)O ; strain or isolate: 700906 (erythromycin-resistant-ERM) ; value: 0.25 µg/mL
O=C(NNC(=O)Nc1cc(C(F)(F)F)cc(C(F)(F)F)c1)Nc1cc(C(F)(F)F)cc(C(F)(F)F)c1 ; strain or isolate: STP51 (penicillin-resistant) ; value: >300 µM
C[C@H]1NCc2cc(-c3ccc4c(=O)c(C(=O)O)cn(C5CC5)c4c3OC(F)F)ccc21 ; strain or isolate: D-1687 ; value: 0.25 µg/mL
CC[C@H]1OC(=O)[C@H](C)C(=O)[C@H](C)[C@@H](O[C@@H]2O[C@H](C)C[C@H](N(C)C)[C@H]2O)[C@@]2(C)C[C@@H](C)C(=NC(C)=O)[C@H](C)C(OC/C(=N/OCc3ccccc3)CO2)[C@]1(C)O ; strain or isolate: 7701 (erythromycin-resistant-MEF) ; value: 1 µg/mL
CC[C@H]1OC(=O)[C@H](C)C(=O)[C@H](C)[C@@H](O[C@@H]2O[C@H](C)C[C@H](N(C)C)[C@H]2O)[C@@]2(C)C[C@@H](C)C(=O)[C@H](C)C(OC/C=C/CO2)[C@]1(C)O ; strain or isolate: 49619 (erythromycin-susceptible) ; value: 0.5 µg/mL
CC[C@H]1OC(=O)[C@H](C)C(=O)[C@H](C)[C@@H](O[C@@H]2O[C@H](C)C[C@H](N(C)C)[C@H]2O)[C@@]2(C)C[C@@H](C)C(=NC(C)=O)[C@H](C)C(OC/C(=C\c3cnc4ccccc4c3)CO2)[C@]1(C)O ; strain or isolate: 700906 (erythromycin-resistant-ERM) ; value: 4 µg/mL
CC(=O)NC[C@H]1CN(c2ccc(-c3ccn(C)n3)c(F)c2)C(=O)O1 ; strain or isolate: UC9912 ; value: 1 µg/mL
COc1c(N2CCNC(C)C2)ccc2c(=O)c(C(=O)O)cn(C3CC3)c12 ; strain or isolate: R6-C11 ; value: 16 µg/mL
CC[C@H]1OC(=O)[C@H](C)C(=O)[C@H](C)[C@@H](O[C@@H]2O[C@H](C)C[C@H](N(C)C)[C@H]2O)[C@@]2(C)C[C@@H](C)C(=NC(C)=O)[C@H](C)[C@@H](OC/C(=N\OCc3ccc4nc(N)sc4c3)CO2)[C@]1(C)O ; strain or isolate: 7701 (erythromycin-resistant-MEF) ; value: <0.06 µg/mL
CC(=O)NC[C@H]1CN(c2ccc(-c3cncs3)c(F)c2)C(=O)O1 ; strain or isolate: UC9912 ; value: ≤0.125 µg/mL
CC[C@H]1OC(=O)[C@H](C)[C@@H](O[C@H]2C[C@@](C)(OC)[C@@H](O)[C@H](C)O2)[C@H](C)[C@@H](O[C@H]2O[C@@H](C)C[C@@H](N(C)C)[C@@H]2O)[C@](C)(O)C[C@@H](C)C(=O)[C@H](C)[C@@H](O)[C@]1(C)O ; strain or isolate: 49619 (erythromycin-susceptible) ; value: <0.06 µg/mL
CC[C@H]1OC(=O)[C@H](C)C(=O)[C@H](C)[C@@H](O[C@@H]2O[C@H](C)C[C@H](N(C)C)[C@H]2O)[C@@]2(C)C[C@@H](C)C(=NC(C)=O)[C@H](C)C(OC/C(=C\C#Cc3ccc(N)cc3)CO2)[C@]1(C)O ; strain or isolate: 7701 (erythromycin-resistant-MEF) ; value: 0.25 µg/mL
O=C(Nc1cccc(C2=NCCN2)c1)Nc1cccc(C2=NCCN2)c1 ; strain or isolate: STP51 (penicillin-resistant) ; value: 38 µM
COc1c(N2CCNC(C)C2)c(F)cc2c(=O)c(C(=O)O)cn(C3CC3)c12 ; strain or isolate: R6 ; value: 0.25 µg/mL
CC[C@H]1OC(=O)[C@H](C)C(=O)[C@H](C)[C@@H](O[C@@H]2O[C@H](C)C[C@H](N(C)C)[C@H]2O)[C@@]2(C)C[C@@H](C)/C(=N\C(=O)OC)[C@H](C)C(OC/C(=C\C=C\c3ccccc3)CO2)[C@]1(C)O ; strain or isolate: 7701 (erythromycin-resistant-MEF) ; value: 0.5 µg/mL
CC[C@H]1OC(=O)[C@H](C)C(=O)[C@H](C)[C@@H](O[C@@H]2O[C@H](C)C[C@H](N(C)C)[C@H]2O)[C@@]2(C)C[C@@H](C)C(=NC(C)=O)[C@H](C)[C@@H](OC/C(=N\Oc3ccc(-n4cccn4)nc3)CO2)[C@]1(C)O ; strain or isolate: 700906 (erythromycin-resistant-ERM) ; value: <0.06 µg/mL
CC[C@H]1OC(=O)[C@H](C)C(=O)[C@H](C)[C@@H](O[C@@H]2O[C@H](C)C[C@H](N(C)C)[C@H]2O)[C@@]2(C)C[C@@H](C)C(=NC(C)=O)[C@H](C)C(OC/C(=C\C=C\c3ccccc3)CO2)[C@]1(C)O ; strain or isolate: 7701 (erythromycin-resistant-MEF) ; value: 0.25 µg/mL
CC[C@H]1OC(=O)[C@H](C)C(=O)[C@H](C)[C@@H](O[C@@H]2O[C@H](C)C[C@H](N(C)C)[C@H]2O)[C@@]2(C)C[C@@H](C)C(=NC(C)=O)[C@H](C)[C@@H](OC/C(=N\Oc3ccc(-c4nccs4)nc3)CO2)[C@]1(C)O ; strain or isolate: 49619 (erythromycin-susceptible) ; value: <0.06 µg/mL
COc1c(N2C[C@@H]3CCCN[C@@H]3C2)ccc2c(=O)c(C(=O)O)cn(C3CC3)c12 ; strain or isolate: R6-C11 ; value: 1 µg/mL
CC(=O)NC[C@H]1CN(c2ccc(-c3cccs3)c(F)c2)C(=O)O1 ; strain or isolate: UC9912 ; value: ≤0.125 µg/mL
O=C(CC(=O)Nc1cc(C(F)(F)F)cc(C(F)(F)F)c1)Nc1cccc(C2=NCCN2)c1 ; strain or isolate: STP51 (penicillin-resistant) ; value: 53 µM
CC(=O)NC[C@H]1CN(c2ccc(-c3cnn(C(c4ccccc4)(c4ccccc4)c4ccccc4)c3)c(F)c2)C(=O)O1 ; strain or isolate: UC9912 ; value: >64 µg/mL
CC[C@H]1OC(=O)[C@H](C)C(=O)[C@H](C)[C@@H](O[C@@H]2O[C@H](C)C[C@H](N(C)C)[C@H]2O)[C@@]2(C)C[C@@H](C)C(=NC(C)=O)[C@H](C)C(OC/C(=C\C#Cc3cccnc3)CO2)[C@]1(C)O ; strain or isolate: 7701 (erythromycin-resistant-MEF) ; value: 0.25 µg/mL
CC[C@H]1OC(=O)[C@H](C)C(=O)[C@H](C)[C@@H](O[C@@H]2O[C@H](C)C[C@H](N(C)C)[C@H]2O)[C@@]2(C)C[C@@H](C)C(=NC(C)=O)[C@H](C)C(OC/C(=N\OCc3ccccc3)CO2)[C@]1(C)O ; strain or isolate: 49619 (erythromycin-susceptible) ; value: <0.06 µg/mL
CC(=O)NC[C@H]1CN(c2ccc(-c3cc(CO)on3)c(F)c2)C(=O)O1 ; strain or isolate: UC9912 ; value: ≤0.5 µg/mL

Repeating the first 4 entries:

structure,strain or isolate,value
CN1CCN(c2cc3c(cc2F)c(=O)c(C(=O)O)cn3C2CC2)CC1,R6,1 µg/mL
CC[C@H]1OC(=O)[C@H](C)C(=O)[C@H](C)[C@@H](O[C@@H]2O[C@H](C)C[C@H](N(C)C)[C@H]2O)[C@@]2(C)C[C@@H](C)C(=NC(C)=O)[C@H](C)[C@@H](OC/C(=N\Oc3ccc(-c4nnc(N)s4)cc3)CO2)[C@]1(C)O,7701 (erythromycin-resistant-MEF),<0.06 µg/mL
O=C(CC(=O)Nc1cccc(C(F)(F)F)c1)Nc1cccc(C(F)(F)F)c1,STP51 (penicillin-resistant),>300 µM
CC[C@H]1OC(=O)[C@H](C)C(=O)[C@H](C)[C@@H](O[C@@H]2O[C@H](C)C[C@H](N(C)C)[C@H]2O)[C@@]2(C)C[C@@H](C)C(=NC(C)=O)[C@H](C)C(OC/C(=C\C=C\c3cccnc3)CO2)[C@]1(C)O,700906 (erythromycin-resistant-ERM),0.25 µg/mL